Reference: patent US8753847
Protein sequences can lack the tags named with them.

Target: T1, PstI restriction endonuclease (Providencia stuartii) (UniProt P00640)
T1 sequence (looked up, limits assumed): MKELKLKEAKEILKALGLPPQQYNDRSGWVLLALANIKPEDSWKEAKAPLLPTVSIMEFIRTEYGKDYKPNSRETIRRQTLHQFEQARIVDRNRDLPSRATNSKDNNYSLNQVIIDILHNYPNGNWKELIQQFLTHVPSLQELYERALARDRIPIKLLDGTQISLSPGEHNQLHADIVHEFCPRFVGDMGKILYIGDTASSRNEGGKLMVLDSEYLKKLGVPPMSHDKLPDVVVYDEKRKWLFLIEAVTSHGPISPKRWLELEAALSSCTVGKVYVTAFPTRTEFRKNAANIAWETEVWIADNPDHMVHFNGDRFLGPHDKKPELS
Assay: enzyme reaction in vitro
Conditions: cleaves own template in droplets, 37 C, 2 h; at least 100-fold enrichment per round over GFP template; protein translated in vitro

## CTGCAG (double strand) [PstI recognition site (two tandem copies at template end)]
  activity on this sequence: active
